Laboratory results: PubChem BioAssay AID624099 (ICCB-Longwood, 2012)

Assay: 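Human genes that papillomavirus E2 requires to repress the HPV18 LCR promoter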 (primary screen)
Cell system: human C33A cervical carcinoma cells (HPV-negative) stably expressing BPV1 E2 and an HPV18 LCR luciferase reporter
Knock-down reagent: siRNA pool against human genes, 40 nM
Timing: 72 h
Measurement: 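Per-well luciferase luminescence, z-scored on each plate against the plate mean and SD with control wells left out, then averaged across three replicate plates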
Scale: mean z-score and z-score: higher = stronger reporter signal, weaker E2 silencing
Rule for the call: 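Mean z ≥ 2 together with z ≥ 2 in two or more of the three replicates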
Here is one part, drawn at random, of about 21,000 deposited reagents. 497 of them (2.4%) count as active. 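Higher z means weaker E2 silencing; only reporter increases were scored, and knock-downs that hurt cell survival may mask genuine repressor factors.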 A number with no mark means an inactive call. Reagents against one gene are numbered here.

no.	gene	reagent no.	mean z-score	z-score, replicate A	z-score, replicate B	z-score, replicate C
1	RTN4RL2	1	-1.34	-1.45	-1.2	-1.37
2	RP2	1	0.92	1.17	0.57	1.03
3	LOC345537 (retired record)	1	1.93	1.89	1.8	2.1
4	RAB9A	1	0.03	-0.35	0.1	0.33
5	RICTOR	1	-0.18	-0.34	0.13	-0.34
6	RICTOR	2	0.61	0.22	1	0.09
7	SLC38A8	1	0.1	0.32	0.25	-0.27
8	HMGB3P1	1	0.2	-0.03	0.02	0.62
9	KRTAP10-9	1	-0.29	-0.64	-0.57	0.33
10	TRAPPC9	1	-0.58	-0.4	-0.55	-0.81
11	AKAP4	1	-0.19	-0.15	-0.24	-0.18
12	IQGAP1	1	1.93	1.78	2.02	2
13	LOC388365 (retired record)	1	-0.45	-0.49	-0.45	-0.41
14	TUBB7P	1	-1.6	-1.71	-1.56	-1.52
15	ALCAM	1	0.54	0.28	0.84	0.49
16	ANKRD40	1	-1.25	-1.6	-1.02	-1.12
17	OR4D1	1	1.37	1.54	1.21	1.35
18	FAM43B	1	-0.35	-0.42	-0.29	-0.33
19	COQ5	1	-0.32	-0.33	-0.26	-0.37
20	EFCAB6	1	-0.53	-0.31	-0.66	-0.62
21	PLCD3	1	-0.72	-0.96	-0.65	-0.53
22	SMPD2	1	0.33	0.37	0.39	0.24
23	SLIT1	1	0.61	0.62	0.4	0.83
24	CALR3	1	1.64	1.72	1.76	1.43
25	MYO7A	1	1.31	1.56	1.27	1.1
26	MCPH1	1	-0.58	-0.59	-0.75	-0.4
27	CYP2B6	1	-0.51	-1.14	-0.73	0.35
28	TRPM1	1	0.13	0.37	0.22	-0.2
29	SEC23B	1	0.63	0.46	0.5	0.94
30	BMS1P9	1	-4.23	-4.14	-4.41	-4.16
31	MBD3L5	1	0.05	-0.05	0.25	-0.06
32	ZBP1	1	0.54	0.26	0.54	0.84
33	THUMPD2	1	1.4	1.17	1.32	1.72
34	MIGA1	1	1.23	1.16	1.3	1.22
35	FAM180A	1	-1.43	-1.56	-1.7	-1.03
36	ILK	1	-2.62	-2.67	-2.8	-2.4
37	ILK	2	0.79	1.28	0.69	0.4
38	NUBP1	1	1.62	1.64	1.46	1.74
39	SLC2A4RG	1	0.33	0	0.16	0.82

A portion from the list above:
no.	gene	reagent no.	mean z-score	z-score, replicate A	z-score, replicate B	z-score, replicate C
21	PLCD3	1	-0.72	-0.96	-0.65	-0.53
22	SMPD2	1	0.33	0.37	0.39	0.24
23	SLIT1	1	0.61	0.62	0.4	0.83
